From ChEMBL document CHEMBL5108080 (J Med Chem, 2022) come the findings set out here.

pEC50: −log10 of the molar value.

The pEC50 is the EC50 on a negative log10 scale, so that one unit is a factor of ten.

The test system of the experiment is Influenza A virus. Nature of the experiment: Antiviral activity against group 2 influenza A virus LPAI H7N7 (A/Netherlands/219/2003) infected in human A549 cells assessed as inhibition of viral entry preincubated with compound for 30 mins followed by viral infection for 1 hour further incubated for 48 hrs with replacement of fresh medium containing compound. The conditions noted are these: strain LPAI H7N7 (A/Netherlands/219/2003).

With `c1ccc(-c2nc3ncccn3c2NC2CCCCC2)cc1`, the pEC50 is 6.60.

In the case of `Brc1ccc(-c2nc3ncccn3c2NC2CCCCC2)cc1`, the pEC50 is 6.70.
